Results of unrelated studies side by side (data: NIAID ChemDB).

Shared fields: whole-cell or culture tests; species: Yellow fever virus; read-out: EC50

ECn is the concentration giving n% inhibition of infection, replication or growth. Blank or dashed fields: not listed here. Lines come from different laboratories, so protocols vary.

SMILES	strain	cell line	result
Cc1cn([C@H]2OC(C)(CO)[C@H](O)[C@@H]2O)c(=O)[nH]c1=O		HepG2.2.15	>10 µM
CC1(C)OC2C(O1)[C@@H](COS(=O)(=O)NC(=O)OC1O[C@H](COCc3ccccc3)[C@@H](OCc3ccccc3)[C@H](OCc3ccccc3)[C@H]1OCc1ccccc1)O[C@H]2n1ncc(=O)[nH]c1=O	Asibi	VERO	62.6 µg/mL
O=[N+]([O-])c1ccc2[nH]c(O)c(N=NC(=S)Nc3ccc(F)cc3)c2c1		VERO	<0.8 µg/mL
Nc1ncn(C[C@@H](CO)OCP(=O)(O)O)c(=O)n1		VERO	>100 µg/mL
Nc1cnn([C@@H]2O[C@H](CO)C(O)C2O)c(=S)n1	Asibi	VERO	209 µg/mL
Nc1ccn([C@@H]2O[C@H](CO)[C@](O)(C(F)(F)F)[C@H]2O)c(=O)n1			≥100 µM
Nc1nc(=O)n2ccn(C3O[C@H](CO)[C@@H](O)[C@H]3O)c2n1			>100 µM
Nc1ncn(C[C@H](CO)OCP(=O)(O)O)c(=O)n1		VERO	>100 µg/mL
CC(=O)OC[C@H]1O[C@@H](n2ncc(=O)[nH]c2=O)[C@H](OC(C)=O)[C@@H]1OC(C)=O	Asibi	VERO	3.1 µg/mL
CCN1C(=O)CS/C1=N/N=C1\C(=O)Nc2ccc([N+](=O)[O-])cc21		VERO	2.52 µg/mL
NC(=O)c1[nH]nc([C@@H]2O[C@H](CO)[C@@H](O)[C@H]2O)c1O	Asibi	VERO	0.66 µg/mL
Nc1nc(=O)n2ccn([C@@H]3O[C@H](CO)C[C@H]3O)c2n1			>100 µM
CC(=O)OC[C@H]1O[C@@H](n2ncc(=S)[nH]c2=O)C(OC(C)=O)C1OC(C)=O	Asibi	VERO	44.8 µg/mL
Cc1ccc(NC(=S)N=Nc2c(O)n(CN3CCOCC3)c3ccc([N+](=O)[O-])cc23)cc1		VERO	3.06 µg/mL
O=c1cnn([C@@H]2O[C@H](COP(=O)(O)O)[C@@H](O)[C@H]2O)c(=O)[nH]1	Asibi	VERO	3.93 µg/mL
O=[N+]([O-])c1ccc2c(c1)c(N=NC(=S)Nc1ccccc1)c(O)n2CN1CCCCC1		VERO	>20 µg/mL
CC(=O)N[C@H]1C[C@@H](n2cnc3c(N)ncnc32)[C@H](O)[C@@H]1O		HFF	>100 µg/mL
O=[N+]([O-])c1ccc2c(c1)c(N=NC(=S)Nc1ccc(Cl)cc1)c(O)n2CN1CCOCC1		VERO	>20 µg/mL
Nc1nc(=O)n2ccn([C@@H]3O[C@H](CO)[C@@H](O)[C@H]3O)c2n1			≥100 µM
CNC(=S)N=Nc1c(O)[nH]c2ccc([N+](=O)[O-])cc12		VERO	>100 µg/mL
C[C@]1(CO)O[C@@H](n2cnc3c(=O)[nH]c(N)nc32)[C@H](O)[C@@H]1O		HepG2.2.15	>10 µM
CNC(=S)N=Nc1c(O)n(CN2CCOCC2)c2ccc([N+](=O)[O-])cc12		VERO	>100 µg/mL
CCCN(CCC)CCSc1nnc2c(n1)[nH]c1ccccc12	17D	VERO	>50 µM
O=[N+]([O-])c1ccc(NC(=S)N=Nc2c(O)[nH]c3ccc([N+](=O)[O-])cc23)cc1		VERO	4 µg/mL
Nc1ncnc2c1ncn2[C@@H]1O[C@H](CO)[C@](O)(C(F)(F)F)[C@H]1O			≥100 µM

The last 2 rows once more:

O=[N+]([O-])c1ccc(NC(=S)N=Nc2c(O)[nH]c3ccc([N+](=O)[O-])cc23)cc1 ; cell line: VERO ; result: 4 µg/mL
Nc1ncnc2c1ncn2[C@@H]1O[C@H](CO)[C@](O)(C(F)(F)F)[C@H]1O ; result: ≥100 µM